In US20050113292A1 (priority 2003, published 2005):

Experiment: CD measurement of α-helicity
Format: physicochemical
Conditions: aqueous solution

| Compound | α-helicity (%) |
| --- | --- |
| CC[C@H](C)[C@H](NC(=O)[C@H](CC(C)C)NC(=O)[C@H](CO)NC(=O)[C@H](Cc1c[nH]cn1)NC(=O)[C@@H](NC(=O)[C@H](CC(C)C)NC(=O)[C@H](CO)NC(=O)[C@@H](NC(=O)[C@H](Cc1ccc(O)cc1)NC(=O)[C@H](CC(N)=O)NC(=O)[C@H](CC(N)=O)NC(=O)[C@@H](NC(=O)[C@H](CCC(=O)O)NC(=O)[C@H](CCCNC(=N)N)NC(=O)[C@H](CC(=O)O)NC(=O)[C@H](Cc1c[nH]c2ccccc12)NC(=O)[C@H](CCC(=O)O)NC(=O)[C@H](CCSC)NC(=O)[C@@H]1Cc2c([nH]c3ccccc23)C(C(=O)NCCCC[C@H](NC(=O)CCNC(=O)C2N[C@H](C(=O)N[C@@H](CCSC)C(=O)N[C@@H](CCC(=O)O)C(=O)N[C@@H](Cc3c[nH]c4ccccc34)C(=O)N[C@@H](CC(=O)O)C(=O)N[C@@H](CCCNC(=N)N)C(=O)N[C@@H](CCC(=O)O)C(=O)N[C@H](C(=O)N[C@@H](CC(N)=O)C(=O)N[C@@H](CC(N)=O)C(=O)N[C@@H](Cc3ccc(O)cc3)C(=O)N[C@H](C(=O)N[C@@H](CO)C(=O)N[C@@H](CC(C)C)C(=O)N[C@H](C(=O)N[C@@H](Cc3c[nH]cn3)C(=O)N[C@@H](CO)C(=O)N[C@@H](CC(C)C)C(=O)N[C@H](C(=O)N[C@@H](CCC(=O)O)C(=O)N[C@@H](CCC(=O)O)C(=O)N[C@@H](CO)C(=O)N[C@@H](CCC(N)=O)C(=O)N[C@@H](CC(N)=O)C(=O)N[C@@H](CCC(N)=O)C(=O)N[C@@H](CCC(N)=O)C(=O)N[C@@H](CCC(=O)O)C(=O)N[C@@H](CCCCN)C(=O)N[C@@H](CC(N)=O)C(=O)N[C@@H](CCC(=O)O)C(=O)N[C@@H](CCC(N)=O)C(=O)N[C@@H](CCC(=O)O)C(=O)N[C@@H](CC(C)C)C(=O)N[C@@H](CC(C)C)C(=O)O)[C@@H](C)CC)[C@@H](C)CC)[C@@H](C)O)[C@@H](C)CC)Cc3c2[nH]c2ccccc32)C(=O)N[C@@H](CO)C(=O)N[C@@H](CO)C(=O)N[C@@H](C)C(N)=O)N1)[C@@H](C)CC)[C@@H](C)O)[C@@H](C)CC)C(=O)N[C@@H](CCC(=O)O)C(=O)N[C@@H](CCC(=O)O)C(=O)N[C@@H](CO)C(=O)N[C@@H](CCC(N)=O)C(=O)N[C@@H](CC(N)=O)C(=O)N[C@@H](CCC(N)=O)C(=O)N[C@@H](CCC(N)=O)C(=O)N[C@@H](CCC(=O)O)C(=O)N[C@@H](CCCCN)C(=O)N[C@@H](CC(N)=O)C(=O)N[C@@H](CCC(=O)O)C(=O)N[C@@H](CCC(N)=O)C(=O)N[C@@H](CCC(=O)O)C(=O)N[C@@H](CC(C)C)C(=O)N[C@@H](CC(C)C)C(=O)O (stereo partly drawn) [Compound 2α-C34] | 52% |
| CC[C@H](C)[C@H](NC(=O)[C@H](CC(C)C)NC(=O)[C@H](CO)NC(=O)[C@H](Cc1c[nH]cn1)NC(=O)[C@@H](NC(=O)[C@H](CC(C)C)NC(=O)[C@H](CO)NC(=O)[C@@H](NC(=O)[C@H](Cc1ccc(O)cc1)NC(=O)[C@@H]1CSC(C(=O)NCCCC[C@H](NC(=O)CCNC(=O)C2N[C@H](C(=O)N[C@@H](Cc3ccc(O)cc3)C(=O)N[C@H](C(=O)N[C@@H](CO)C(=O)N[C@@H](CC(C)C)C(=O)N[C@H](C(=O)N[C@@H](Cc3c[nH]cn3)C(=O)N[C@@H](CO)C(=O)N[C@@H](CC(C)C)C(=O)N[C@H](C(=O)N[C@@H](CCC(=O)O)C(=O)N[C@@H](CCC(=O)O)C(=O)N[C@@H](CO)C(=O)N[C@@H](CCC(N)=O)C(=O)N[C@@H](CC(N)=O)C(=O)N[C@@H](CCC(N)=O)C(=O)N[C@@H](CCC(N)=O)C(=O)N[C@@H](CCC(=O)O)C(=O)N[C@@H](CCCCN)C(=O)N[C@@H](CC(N)=O)C(=O)N[C@@H](CCC(=O)O)C(=O)N[C@@H](CCC(N)=O)C(=O)N[C@@H](CCC(=O)O)C(=O)N[C@@H](CC(C)C)C(=O)N[C@@H](CC(C)C)C(=O)N[C@@H](CCC(=O)O)C(=O)N[C@@H](CC(C)C)C(=O)N[C@@H](CC(=O)O)C(=O)N[C@@H](CCCCN)C(=O)N[C@@H](Cc3c[nH]c4ccccc34)C(=O)N[C@@H](C)C(=O)N[C@@H](CO)C(=O)N[C@@H](CC(C)C)C(=O)N[C@@H](Cc3c[nH]c4ccccc34)C(=O)N[C@@H](CC(N)=O)C(=O)N[C@@H](Cc3c[nH]c4ccccc34)C(=O)N[C@@H](Cc3ccccc3)C(=O)O)[C@@H](C)CC)[C@@H](C)CC)[C@@H](C)O)CS2)C(=O)N[C@@H](CO)C(=O)N[C@@H](CO)C(=O)N[C@@H](C)C(N)=O)N1)[C@@H](C)O)[C@@H](C)CC)C(=O)N[C@@H](CCC(=O)O)C(=O)N[C@@H](CCC(=O)O)C(=O)N[C@@H](CO)C(=O)N[C@@H](CCC(N)=O)C(=O)N[C@@H](CC(N)=O)C(=O)N[C@@H](CCC(N)=O)C(=O)N[C@@H](CCC(N)=O)C(=O)N[C@@H](CCC(=O)O)C(=O)N[C@@H](CCCCN)C(=O)N[C@@H](CC(N)=O)C(=O)N[C@@H](CCC(=O)O)C(=O)N[C@@H](CCC(N)=O)C(=O)N[C@@H](CCC(=O)O)C(=O)N[C@@H](CC(C)C)C(=O)N[C@@H](CC(C)C)C(=O)N[C@@H](CCC(=O)O)C(=O)N[C@@H](CC(C)C)C(=O)N[C@@H](CC(=O)O)C(=O)N[C@@H](CCCCN)C(=O)N[C@@H](Cc1c[nH]c2ccccc12)C(=O)N[C@@H](C)C(=O)N[C@@H](CO)C(=O)N[C@@H](CC(C)C)C(=O)N[C@@H](Cc1c[nH]c2ccccc12)C(=O)N[C@@H](CC(N)=O)C(=O)N[C@@H](Cc1c[nH]c2ccccc12)C(=O)N[C@@H](Cc1ccccc1)C(=O)O (stereo partly drawn) [Compound 2α-DP178] | 66% |
